Compound potency records, mixed from different reports. Data source: NIAID ChemDB in PubChem.

Shared fields: growth or infection tests; species: Varicella zoster virus; endpoint: EC50

ECn: concentration that inhibits the pathogen or its effect by n%. Rows are shuffled and stem from different studies.

O=C(NCc1ccc(Cl)cc1)c1n[nH]c2ccccc2c1=O ; value: 1.1 µM
Nc1ncnc2c1ncn2C[C@@H](CO)OCP(=O)(O)O ; cells: HEL ; strain: BVDU-resistant ; read by: plaque count ; value: 0.026 µg/mL
C[C@H]1C[C@@H](n2cnc3c(N)ncnc32)[C@H](O)[C@@H]1O ; cells: HEL ; strain: YS/R (TK-) ; read by: cytopathic effect ; value: 4 µg/mL
Nc1ccn([C@@H]2C[C@@H](O)[C@H](CO)O2)c(=O)n1 ; cells: HFF ; value: >100 µM
C[C@H](COc1cc(N)nc(N)n1)OCP(=O)(O)O ; strain: YS ; read by: cytopathic effect ; value: 18 µM
Nc1nc2c(ncn2CCC(CO)CO)c(=O)[nH]1 ; cells: HEL ; strain: PCV-resistant/B ; read by: plaque count ; value: 2 µg/mL
Nc1nc(N)c2ncn([C@@H]3S[C@H](CO)[C@H](O)[C@@H]3F)c2n1 ; value: 0.101 µg/mL
O=c1[nH]c(=O)n([C@@H]2O[C@H](CO)[C@@H](O)[C@@H]2O)cc1/C=C/Br ; cells: HEL ; strain: BVaraU-resistant ; read by: plaque count ; value: >20 µg/mL
Nc1ncnc2c1ncn2C[C@@H](CO)OCP(=O)(O)O ; strain: YS ; read by: cytopathic effect ; value: 0.07 µM
Nc1ncnc2c1ncn2[C@@H]1C[C@@H](O)[C@H](CO)O1 ; cells: HFF ; value: >100 µM
Nc1cc(OC[C@H](CO)OCP(=O)(O)O)nc(N)n1 ; strain: YS ; read by: cytopathic effect ; value: 0.51 µM
O=C(NCc1ccc(Cl)cc1)c1cn2c(CO)cc3cc(CN4CCOCC4)cc(c1=O)c32 ; value: 0.16 µM
Nc1ncnc2c1ncn2CCOCP(=O)(O)O ; cells: HEL ; strain: Oka penciclovir-resistant/A ; read by: cytopathic effect ; value: 131.8 µM
C[C@H](Cn1cnc2c(NC3CC3)ncnc21)OCP(=O)(O)O ; strain: 07/1 (TK-) ; value: 0.08 µg/mL
Cc1cn([C@@H]2C[C@@H](O)[C@H](CO)O2)c(=O)[nH]c1=O ; cells: HFF ; value: 4.52 µM